A mixed list of measured activities; the numbers were collected in NIAID ChemDB.

Common to all: whole-cell or culture tests; agent: HIV-1

Conditions beyond the fields shown may differ between rows. ECn is the concentration giving n% inhibition of infection, replication or growth. An empty or dashed field is not shown.

smiles | read by | strain or isolate | cell line | endpoint | changes | result
Cc1ccc(NC(=O)CSc2nnc(C)n2-c2c(C)cc(C)c3ccccc23)c(Cl)c1 | luciferase | NL4-3 | HeLa + HeLa-JC53 | EC50 | RT-Y188L | 0.09 µM
Cc1cccc(C)c1OCC(=O)N[C@@H](Cc1ccccc1)[C@H](O)CN(CC(C)C)S(=O)(=O)c1ccc2nc[nH]c2c1 | cytopathic effect / MTT | LAI WT | MT-4 | EC50 |  | 0.079 µM
CNC(C(=O)O)C(O)C(=O)Nc1cccc2c(C(=O)C(=O)N3CCN(C(=O)c4ccccc4)C[C@H]3C)c[nH]c12 | luciferase / reporter gene |  | HeLa | EC50 |  | <1 µM
CN1N=C(N)c2cn([C@@H]3O[C@H](COP(=O)(O)O)[C@@H](O)[C@H]3O)c3ncnc1c23 | syncytia | G-691 | CEM + CEM-SS | EC50 |  | 0.043 µM
COc1ccc(S(=O)(=O)N(CC(C)C)C[C@@H](O)CCN(CC2CCCC2)S(=O)(=O)c2nc3ccccc3[nH]2)cc1 | p24 | IIIB | CEM | EC90 |  | 1 µM
Cc1ccc(-n2c(C)nnc2SCC(=O)Nc2ccc(Cl)cc2)cc1 | luciferase | NL4-3 | HeLa + HeLa-JC53 | EC50 | RT-K103N Y181C | >10 µM
CC(C)COC(=O)Nc1cccc2c(C(=O)C(=O)N3CCN(C(=O)c4ccccc4)CC3)c[nH]c12 | luciferase / reporter gene |  | HeLa | EC50 |  | <1 µM
O=C(O)C[C@H](NC(=O)c1ccccc1SSc1ccccc1C(=O)N[C@@H](CC(=O)O)C(=O)O)C(=O)O | cytopathic effect / XTT | IIIB | CEM | EC50 |  | >100 µM
CCOC(=O)CCCNC(=O)Nc1ccc(F)c2c(C(=O)C(=O)N3CCN(C(=O)c4ccccc4)CC3)c[nH]c12 | luciferase / reporter gene |  | HeLa | EC50 |  | <1 µM
CCc1ccccc1N/N=C/c1ccc2cccc(O)c2n1 | luciferase | UG070 | TZM-bl | EC50 |  | 10.09 µM
O=C(N[C@@H](CCc1ccccc1)C(=O)O)c1ccccc1SSc1ccccc1C(=O)N[C@@H](CCc1ccccc1)C(=O)O | cytopathic effect / XTT | IIIB | CEM | EC50 |  | 6 µM
Cc1ccc(-n2c(C)nnc2SCC(=O)Nc2ccc(OC(F)(F)F)cc2Br)cc1 | luciferase | NL4-3 | HeLa + HeLa-JC53 | EC50 | RT-K103N Y181C | >10 µM
Cc1ccc(C(C)c2c(C(C)C)c(=O)[nH]c(=O)n2COCc2ccccc2)cc1 | MTT | IIIB | MT-4 | EC50 |  | 10.7 µM
CC(C)CN(C[C@@H](O)[C@H](Cc1ccccc1)NC(=O)OCc1cccnc1)S(=O)(=O)c1ccc2nc[nH]c2c1 | cytopathic effect / MTT | LAI WT | MT-4 | EC50 |  | 0.1 µM
C=CCN(N=O)C(=O)N(CCCC[C@H](NC(C)=O)C(=O)NCc1ccccc1)Cc1ccccc1 | cytopathic effect / XTT | IIIB | CEM-IW + CEM | EC50 |  | >100 µM
CC(C)CN(C[C@H](O)C[C@@H](CN[C@H]1Cc2ccccc2[C@H]1O)Cc1ccccc1)S(=O)(=O)c1ccccc1 | p24 | IIIB | CEM | EC50 |  | <1 µM
C=C(C)[C@@H]1CC[C@]2(C(=O)NCCC(C)(C)C)CC[C@]3(C)[C@H](CC[C@@H]4[C@@]5(C)CC[C@H](OC(=O)CC(C)(C)C(=O)O)C(C)(C)[C@@H]5CC[C@]43C)[C@@H]12 | absorbance | NL4-3 |  | EC50 | V362I | 0.052 µM
COc1ccnc2[nH]cc(C(=O)C(=O)N3CCN(C(=O)c4ccccc4)C[C@H]3C)c12 | RT activity | LAI(GP120-V68A M434I) Recombinant | MT-2 | EC50 | GP120-V68A M434I | 0.309 µM
COC(=O)C[C@H](CCCCN)NC(=O)c1ccccc1SSc1ccccc1C(=O)N[C@@H](CCCCN)CC(=O)OC | cytopathic effect / XTT | IIIB | CEM | EC50 |  | 10.4 µM
Clc1cc(CN2CCCNCCNCCCNCC2)cc(Cl)n1 | p24 | BAL R5 | MM + M/M | EC50 |  | 23.9 µM
Cc1cc(-n2c(C)nnc2SCC(=O)Nc2ccccc2Br)c2ccccc2c1C | luciferase | NL4-3 | HeLa + HeLa-JC53 | EC50 | RT-Y188L | 0.097 µM
CCCNCCC[C@H](NC(C)=O)C(=O)NCc1ccccc1 | cytopathic effect / XTT | IIIB | CEM-IW + CEM | EC50 |  | >100 µM
C=C(c1cc(OC)cc(OC)c1)c1c(C)c(=O)[nH]c(=O)n1COCc1ccccc1 | MTT | IIIB | MT-4 | EC50 | Y181C | 53.48 µM
Oc1cccc2ccc(/C=N/Nc3ccccc3)nc12 | luciferase | UG070 | TZM-bl | EC50 |  | 21.04 µM
CC(C)=CCOc1cc(NC(=S)c2ccoc2C)ccc1Cl | syncytia | IIIB | CEM | EC50 | RT-Y188H | 0.045 µM
CC[C@H](C)[C@H](NC(=O)c1ccccc1SSc1ccccc1C(=O)N[C@H](C(=O)OC(C)(C)C)[C@@H](C)CC)C(=O)OC(C)(C)C | cytopathic effect / XTT | IIIB | CEM | EC50 |  | >95 µM
Cc1nnc(SCC(=O)Nc2ccccc2Br)n1-c1ccc(Cl)c2ccccc12 | luciferase | NL4-3 | HeLa + HeLa-JC53 | EC50 | RT-Y188L | 0.2 µM
O=C(Nc1ccc(C[C@H](NC(=O)c2ccccc2SSc2ccccc2C(=O)N[C@@H](Cc2ccc(NC(=O)OCc3ccccc3)cc2)C(=O)O)C(=O)O)cc1)OCc1ccccc1 | cytopathic effect / XTT | IIIB | CEM | EC50 |  | 13 µM
CC(C)CN(C[C@@H](O)[C@H](Cc1ccccc1)NC(=O)OC(C)(C)C)S(=O)(=O)c1ccc2ncn(CCc3ccccc3)c2c1 | cytopathic effect / MTT | LAI WT | MT-4 | EC50 |  | 0.398 µM
O=C(N[C@@H](CCC1CCCCC1)C(=O)O)c1ccccc1SSc1ccccc1C(=O)N[C@@H](CCC1CCCCC1)C(=O)O | cytopathic effect / XTT | IIIB | CEM | EC50 |  | 5.6 µM
CC1=C(C(=O)Nc2ccc(Cl)c(C(=O)OC(C)C)c2)SCCO1 | syncytia | IIIB | CEM | EC50 | RT-E138K | >61 µM
COC(=O)[C@H](CCCCN)NC(=O)c1ccccc1SSc1ccccc1C(=O)N[C@@H](CCCCN)C(=O)OC | cytopathic effect / XTT | IIIB | CEM | EC50 |  | 14.9 µM
CC(=O)N[C@@H](CCCCNC(=O)OCc1ccccc1)C(=O)NCc1ccccc1 | cytopathic effect / XTT | IIIB | CEM-IW + CEM | EC50 |  | >100 µM
COc1ccc(S(=O)(=O)N(CC(C)C)C[C@@H](O)CCN(CC2CCCC2)S(=O)(=O)C2CCS(=O)(=O)C2)cc1 | p24 | IIIB | CEM | EC90 |  | 1 µM
CCC[C@H](NC(=O)c1ccccc1SSc1ccccc1C(=O)N[C@@H](CCC)C(=O)O)C(=O)O | cytopathic effect / XTT | IIIB | CEM | EC50 |  | 28.5 µM
Cc1ccc(-c2ccc3c(c2)C=C(C(=O)Nc2ccc(C[N+](C)(C)C4CCOCC4)cc2)CCC3)cc1 | p24 | TB6 CLADE C | PBMC | EC50 |  | <1 µM
CSCC[C@H](C)OC(=O)[C@@H](N)c1ccccc1-c1cccc2ccccc12 | MTT | NL4-3 | MT-4 | EC50 |  | 31 µM
COc1ccc(S(=O)(=O)N(CC2CCCC2)C(=O)C(=O)C(=O)[C@@H](Cc2ccccc2)NC(=O)OC2COCOC2)cc1 | p24 | IIIB | CEM | EC50 |  | <1 µM
Cc1ccc(N/N=C/c2ccc3cccc(O)c3n2)cc1 | luciferase | VB59 | TZM-bl | EC50 |  | 45.83 µM
CCc1ccc(-n2c(C)nnc2SCC(=O)Nc2ccc(C)cc2Cl)c2ccccc12 | luciferase | NL4-3 | HeLa + HeLa-JC53 | EC50 | RT-Y188L | 0.11 µM
COc1ccc(S(=O)(=O)N(CC(C)C)C[C@@H](O)CCN(CC2CCCC2)S(=O)(=O)C2CCS(=O)(=O)CC2)cc1 | p24 | IIIB | CEM | EC90 |  | 1 µM
C=C(c1ccccc1)c1c(C)c(=O)[nH]c(=O)n1COCc1ccccc1 | MTT | IIIB | MT-4 | EC50 | L100I | 31.3 µM
CC(C)C[C@H](NC(=O)c1ccccc1SSc1ccccc1C(=O)N[C@@H](CC(C)C)C(=O)OC(C)(C)C)C(=O)OC(C)(C)C | cytopathic effect / XTT | IIIB | CEM | EC50 |  | 69 µM
CC(=O)N[C@@H](CCCN(Cc1ccccc1)C(=O)N(CCCl)N=O)C(=O)NCc1ccccc1 | cytopathic effect / XTT | IIIB | CEM-IW + CEM | EC50 |  | >100 µM
C[C@@H]1CN(C(=O)c2ccccc2)CCN1C(=O)C(=O)c1c[nH]c2c(NC(=O)C(O)C(O)C(N)=O)cccc12 | luciferase / reporter gene |  | HeLa | EC50 |  | <1 µM
COc1ccc(C(C)c2c(C(C)C)c(=O)[nH]c(=O)n2COCc2ccccc2)cc1 | MTT | IIIB | MT-4 | EC50 |  | >33.28 µM
C=CCNC(=O)NCCC[C@H](NC(C)=O)C(=O)NCc1ccccc1 | cytopathic effect / XTT | IIIB | CEM-IW + CEM | EC50 |  | >100 µM
COc1ccc(S(=O)(=O)N(Cc2ccccc2)CC(F)(F)C(=O)[C@@H](Cc2ccccc2)NC(=O)OCc2ccccc2)cc1 | p24 | IIIB | CEM | EC90 |  | 1 µM
Cc1ccc(N/N=C/c2ccc3cccc(O)c3n2)c(C)c1 | luciferase | VB59 | TZM-bl | EC50 |  | 309 µM
C=CCN(N=O)C(=O)N(CCC[C@H](NC(C)=O)C(=O)NCc1ccccc1)Cc1ccccc1 | cytopathic effect / XTT | IIIB | CEM-IW + CEM | EC50 |  | >100 µM
CC(C)CN(C[C@@H](O)[C@H](Cc1ccccc1)NC(=O)OCc1cncs1)S(=O)(=O)c1ccc2nc[nH]c2c1 | cytopathic effect / MTT | LAI WT | MT-4 | EC50 |  | 0.05 µM
Cc1cc(C)c2ccccc2c1-n1c(C)nnc1SCC(=O)Nc1ccccc1Br | luciferase | NL4-3 | HeLa + HeLa-JC53 | EC50 | RT-K103N Y181C | 0.07 µM

Repeating the first 6 entries:

smiles,read by,strain or isolate,cell line,endpoint,changes,result
Cc1ccc(NC(=O)CSc2nnc(C)n2-c2c(C)cc(C)c3ccccc23)c(Cl)c1,luciferase,NL4-3,HeLa + HeLa-JC53,EC50,RT-Y188L,0.09 µM
Cc1cccc(C)c1OCC(=O)N[C@@H](Cc1ccccc1)[C@H](O)CN(CC(C)C)S(=O)(=O)c1ccc2nc[nH]c2c1,cytopathic effect / MTT,LAI WT,MT-4,EC50,,0.079 µM
CNC(C(=O)O)C(O)C(=O)Nc1cccc2c(C(=O)C(=O)N3CCN(C(=O)c4ccccc4)C[C@H]3C)c[nH]c12,luciferase / reporter gene,,HeLa,EC50,,<1 µM
CN1N=C(N)c2cn([C@@H]3O[C@H](COP(=O)(O)O)[C@@H](O)[C@H]3O)c3ncnc1c23,syncytia,G-691,CEM + CEM-SS,EC50,,0.043 µM
COc1ccc(S(=O)(=O)N(CC(C)C)C[C@@H](O)CCN(CC2CCCC2)S(=O)(=O)c2nc3ccccc3[nH]2)cc1,p24,IIIB,CEM,EC90,,1 µM
Cc1ccc(-n2c(C)nnc2SCC(=O)Nc2ccc(Cl)cc2)cc1,luciferase,NL4-3,HeLa + HeLa-JC53,EC50,RT-K103N Y181C,>10 µM